# For some of these results: The index is printed as in the source, without its formula.
# Columns and labels:
# [1] = test system: exsheathed third-stage larvae (xL3) of Haemonchus contortus; assay: Dose-response assay, inhibition of larval motility; assay type: cell-based; conditions: selectivity index from CC50 (HepG2) and IC50 (xL3 motility)
# Method: (§1) Haemonchus contortus (Haecon-5 strain) was maintained in experimental sheep, in accordance with institutional animal ethics approval (permit no. 1714374; The University of Melbourne). Helminth-free Merino sheep (male; eight months of age) were inoculated orally with 7000 third-stage larvae (L3s) of H. contortus. Faecal samples containing H. contortus eggs were collected every day from 21 days following inoculation. These samples were incubated at 27 °C for one week to produce L3s, which were harvested and sieved through two layers of nylon mesh ([…] pore size; Rowe Scientific, Australia) to remove debris and dead larvae, and then stored at 11 °C for up to 6 months until use. To produce exsheathed third-stage larvae (xL3s) for in vitro assays, L3s were incubated in 0.15% (v/v) sodium hypochlorite for 20 min at 37 °C followed by five washes in 0.9% sterile saline by centrifugation at 600× g (5 min) at room temperature (22–24 °C).
# Three compounds (designated MPK18, MPK334 and YAK308) shown to have activity against H. contortus in the primary screen were evaluated for their potency by estimating their half maximal inhibitory concentrations (IC50), calculated in a dose-response assay. In brief, compounds were titrated (18-points, 2-fold serial dilution in 50 μL of LB*, 100 µM down to 0.76 nM), in 96-well microtitre plates and xL3s were dispensed in 50 µL at a density of ~300 per well. All plates were incubated at 38 °C and 10% (v/v) CO2 with >90% humidity. After 72 h of incubation, a video recording (5 s) was taken of each well in the same camera settings as the primary screen (see Section 3.3), and larval motility measured. The motility index (Mi) was calculated from video data using the unique algorithm written in a custom macro, and analysed through the program ImageJ (v.2.0.0, Fiji). Mi data were normalised to a percentage compared with negative control (LB* + 0.5% DMSO). Monepantel and moxidectin were diluted in the same manner, and used as positive control compounds. Assays were performed in triplicate, three times, on separate days. […]
# [2] = test system: exsheathed third-stage larvae (xL3) / fourth-stage larvae (L4) of Haemonchus contortus; assay: Dose-response assay, inhibition of larval development (xL3 to L4) and phenotype over 7 days; assay type: cell-based; conditions: selectivity index from CC50 (HepG2) and IC50 (L4 development)
# Method: as §1
# Following the measurement of larval motility at 72 h, plates containing xL3s were incubated for four more days at 38 °C [10% (v/v) CO2 and >90% relative humidity] to test the active compounds (MPK18, MPK334 and YAK308) for their effect on the larval development over 7 days. Subsequently, worms were fixed in 1% iodine, and the rate of larval development was assessed microscopically appraising the presence (L4) or absence (xL3) of mouth and pharynx, and direct comparison with negative (untreated) controls (LB* + 0.5% DMSO). Thirty worms from each well were examined at 50-times magnification, and the number of L4s was expressed as a percentage of the total number. Assays were performed in triplicate, three times, on separate days. To establish IC50 values, compound concentrations were log10-transformed, fitted using a variable slope four-parameter equation with constraining the top value to 100% using a least squares (ordinary) fit model using GraphPad Prism (v. 9.0.2) software.
Compound,SI xL3 Motility [1],SI L4 Development [2]
O=C(/C=C/c1ccccc1)c1ccc(Br)cc1O [MPK334],5.8,8.1
"C[C@](C#N)(COc1cc(C#N)ccc1C(F)(F)F)NC(=O)c1ccc(SC(F)(F)F)cc1 [Monepantel, monepantel, reference compound]",166,250
"CO/N=C1\C[C@]2(C[C@@H]3C[C@@H](C/C=C(\C)C[C@@H](C)/C=C/C=C4\CO[C@@H]5[C@H](O)C(C)=C[C@@H](C(=O)O3)[C@]45O)O2)O[C@H](/C(C)=C/C(C)C)[C@H]1C [Moxidectin, moxidectin, reference compound]",125,8.1
COc1cc(OC)cc(C(=O)Nc2nc(-c3ccccc3)cs2)c1 [YAK308],,16.1
